Laboratory results reported in patent US20240277795A1, “INHIBITORS OF CYSTEINE PROTEASES AND METHODS OF USE THEREOF” (Pardes Biosciences, Inc., priority 2021, published 2024).

By UniProt entry, the sequences of proteins in these tests, tags left out. Residues count along the entry.
UniProt P0C6X6, 3247-3549 limits assumed: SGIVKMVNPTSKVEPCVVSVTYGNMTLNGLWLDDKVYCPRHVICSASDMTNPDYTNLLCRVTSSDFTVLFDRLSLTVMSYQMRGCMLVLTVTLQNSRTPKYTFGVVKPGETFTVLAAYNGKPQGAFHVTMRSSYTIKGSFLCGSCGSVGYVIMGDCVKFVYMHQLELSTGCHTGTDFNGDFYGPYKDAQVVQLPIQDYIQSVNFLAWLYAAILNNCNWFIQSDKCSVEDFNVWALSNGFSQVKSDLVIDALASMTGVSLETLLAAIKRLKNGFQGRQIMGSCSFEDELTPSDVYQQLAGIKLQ
UniProt P0C6X1, 2966-3267 limits assumed: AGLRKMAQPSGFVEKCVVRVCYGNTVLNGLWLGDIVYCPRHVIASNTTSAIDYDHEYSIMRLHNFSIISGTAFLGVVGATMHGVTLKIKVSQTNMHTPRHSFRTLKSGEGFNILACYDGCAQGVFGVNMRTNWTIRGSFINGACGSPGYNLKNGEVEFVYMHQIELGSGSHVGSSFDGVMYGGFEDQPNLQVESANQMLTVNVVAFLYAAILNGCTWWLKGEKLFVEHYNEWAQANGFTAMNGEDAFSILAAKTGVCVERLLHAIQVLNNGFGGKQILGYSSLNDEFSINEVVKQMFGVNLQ

Columns and labels:
OC43 Mpro = OC43 Mpro (Human coronavirus OC43, UniProt P0C6X6); assay: OC43 Mpro enzymatic assay; conditions: read-out: OC43 Mpro IC50; Table 3
Method: (§1) Compounds were assayed using standard methods to assess compound activity and IC50. As an exemplary for assessment of the SARS-COV2 Mpro, the C-His6-tagged Mpro (NC_045512) was cloned, expressed in E. coli and purified. The assay buffer contained 20 mM of Tris-HCl (pH 7.3), 100 mM of NaCl, 1 mM of EDTA, 5 mM of TCEP and 0.1% BSA. The final concentrations of the Mpro protein and substrate were 25 nM and 25 μM, respectively, in the Mpro enzymatic assay. The Km of the Mpro substrate for the protease was 13.5 μM.
(§2) The compounds were added to an assay plate. For 100% inhibition control (HPE, hundred percent effect), 1 μM GC376 was added. For no inhibition control (ZPE, zero percent effect), no compound was added.
(§3) IC50 values of compounds were calculated with the GraphPad Prism software using the nonlinear regression model of log(inhibitor) vs. response—Variable slope (four parameters). The inhibition activity was calculated using the formula below, IC50 values is calculated using the Inhibition % data.
(§4) [formula] • #HEP: Hundred percent effect controls. Containing substrate+enzyme+1 μM GC376. • ZPE: Zero percent effective controls. Containing enzyme+substrate, no compound. • Sample: Compound activity testing wells. Containing compound+enzyme+substrate. • BG: Compound background control wells. Containing compound+substrate, no enzyme.

229E Mpro = 229E Mpro (Human coronavirus 229E, UniProt P0C6X1); assay: 229E Mpro enzymatic assay; conditions: read-out: 229E Mpro IC50; Table 3
Method: as §1, §2, §3, §4

SARS-COV2 Mpro = SARS-COV2 Mpro (Severe acute respiratory syndrome coronavirus 2, UniProt P0DTD1); assay: COVID-19 (nCoV-2019, SARS-CoV2) Mpro enzymatic assay; conditions: read-out: COVID-19 Mpro IC50; Table 3

Measured: IC50

CC1(C)[C@@H]2[C@@H](C(=O)N[C@H](C#N)C[C@@H]3CC4(CC4)NC3=O)N(C(=O)C(NC(=O)C(F)(F)F)C3CC(F)(F)C3)C[C@@H]21 (single isomer, unassigned)
< 2000 nM: all assays above
